Measurements taken from article PMC7239026.

What was measured:
rCovR = rCovR (UniProt I6L8Z3); assay: EMSA; conditions: poly d(I-C), poly-L-lysine, cold pepO competitor 200-fold used, 1X Binding Buffer ([…], pH 7.5), recombinant protein, label: 3' biotin, probe letters rebuilt from the primers and the genome
rVicR = rVicR (UniProt I6L8Z5); assay: EMSA; conditions: poly d(I-C), poly-L-lysine, cold pepO competitor 200-fold used, 1X Binding Buffer ([…], pH 7.5), recombinant protein, label: 3' biotin, probe letters rebuilt from the primers and the genome

“AGCTCCGCTTTATATTCCTGCTATTGTTTATCTTGGCAATAAAGTTTATGAATCTCTTCGTAAAAATTTCGATTTACCCTCAAATAAAGAAGAAGCCAAGAAAACGATAGCAGATATTAAGAATGATCAAAGGCAATTTACGGGAAACGTTATTAGAATTACAACACAAAAAGATTGGCTAAACAACATTGCTCGTAATTTAGGTGCAGTTTATTTAGGCAAAGAACATATTATTATCAATTCTGGGGGTCATGATTTGCAGGGTATTGTAAATGATATGAAGCAAGTTGCTAATGTGAAGGCATTGGTTAGTATCTAGCA (double strand) [pepO promoter fragment]”: binds (rCovR); binds (rVicR).

Construct, isoform or probe ends are uncertain for at least one entry.
